PubChem BioAssay AID1259414, Drosophila RNAi Screening Center, 2018
The deposit covers about 24,000 reagents; shown is an unselected part of those that have a named target and a result. Over the whole deposit, about 1,210 (5%) were called active. 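Inactive calls also include excluded dsRNAs with several or no targets, genes unexpressed in JW18, and well A1, regardless of score.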 Unmarked entries are inactive. The numbers tell different reagents against one gene apart. A plus sign joins genes that one reagent is predicted to hit. Reagent sequences are not shown.

Assay: 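Genome-wide screen for host control of endosymbiont load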 (primary screen)
System: Drosophila JW18 cells infected with Wolbachia
Knock-down reagent: long dsRNA against Drosophila genes, 0.25 µg dsRNA per well of a 384-well plate
Timing: 5 days
Conditions: cells persistently infected with Wolbachia before knock-down; no added drug
Measured: 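Automated imaging of bacterial rRNA staining divided by host cell count, reported as plate-normalised robust z-score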
Direction: Wolbachia per cell robust z: higher = more Wolbachia per host cell than the plate typical
Call rule: 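Hit when robust z is 1.5 or more, or -1.5 or less, in at least two of three replicates; excludes dsRNAs with several or no targets, genes not expressed in JW18 and well A1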

no.	target gene	reagent no.	Wolbachia per cell robust z, rep 1	Wolbachia per cell robust z, rep 2	Wolbachia per cell robust z, rep 3
1	Gpo2 (Glycerophosphate oxidase 2)	1	-0.239	-0.666	-0.289
2	sxc (super sex combs)	1	-0.693	0.587	-1.47
3	NfI (Nuclear factor I)	1	-1.47	0.192	-8.91
4	TwdlP (TweedleP)	1	0.312	-1.61	-2.17
5	Hers (Histone gene-specific Epigenetic Repressor in late S phase)	1	-0.823	-0.296	0.243
6	Hers (Histone gene-specific Epigenetic Repressor in late S phase)	2	-1.5 (active)	-1.65	-0.986
7	Hers (Histone gene-specific Epigenetic Repressor in late S phase)	3	-1.35	-2.82	-1.05
8	CG11327	1	0.0549	-0.00158	0.201
9	CG11327	2	-0.819	-0.148	-2.49
10	CG9698	1	-3.13	-0.384	0.082
11	CG13949	1	0.817	1.5	-0.315
12	CG13949	2	-0.195	0.242	0.712
13	CG42685	1	1.78	-0.231	1.74
14	CG42685	2	-0.729	-5.43	-2.84
15	CG34049	1	-0.474	-0.142	-4.87
16	CG8100	1	0.578	-7.61	-0.753
17	Ac13E (Adenylyl cyclase 13E)	1	-0.0588	-0.891	0.098
18	Ac13E (Adenylyl cyclase 13E)	2	1.05	0.688	0.147
19	CG1840	1	0.498	0.556	0.348
20	CG1840	2	-0.828	-0.0719	-0.299
21	CG6845	1	-0.25	1.17	-0.997
22	CG6845	2	0.057	-0.0051	1.36
23	CG3224	1	0.871	0.485	0.588
24	CG30281	1	0.523	-0.691	0.127
25	CG30281	2	0.00429	-1.47	-0.291
26	CG40228	1	0.582	0.914	-0.0927
27	Dph1 (Diphthamide biosynthesis 1)	1	-0.0354	-5.61	-0.191
28	salt (salty dog)	1	-0.614	-0.748	-4.02
29	salt (salty dog)	2	1.48	0.649	-0.618
30	CG12947 + asRNA:CR31514	1	-0.586	0.788	0.488
31	fs(1)Ya (female sterile (1) Young arrest)	1	-1.73	-0.268	0.152
32	Cdlc2 (Cytoplasmic dynein light chain 2)	1	0.509	0.716	-0.45
33	Cdlc2 (Cytoplasmic dynein light chain 2)	2	1.14	0.437	0.746
34	Hrd3 (HMG-coA reductase degradation 3)	1	0.457	0.606	-0.272
35	Hrd3 (HMG-coA reductase degradation 3)	2	1.01	1.67	0.899
36	mRpL45 (mitochondrial ribosomal protein L45)	1	0.706	-1.98	-0.0567
37	TAF1B	1	-1.03	-1.48	-0.716
38	ABCB7 (ATP binding cassette subfamily B member 7)	1	1.02	1.35	0.539
39	nvd (neverland)	1	1.04	0.935	0.184
40	nvd (neverland)	2	1.32	0.569	1.52
41	CG8851	1	-0.129	-4	0.706
42	CG8851	2	0.663	-5.51	-0.791
43	mtSSB (mitochondrial single stranded DNA-binding protein)	1	0.261	0.22	-1.33
44	CG9555	1	0.00422	1.19	1.66
45	CG9555	2	0.99	1.35	-0.487
46	oxt (peptide O-xylosyltransferase)	1	0.456	-0.434	0.0215

2 successive reagents already listed:
no.	target gene	reagent no.	Wolbachia per cell robust z, rep 1	Wolbachia per cell robust z, rep 2	Wolbachia per cell robust z, rep 3
42	CG8851	2	0.663	-5.51	-0.791
43	mtSSB (mitochondrial single stranded DNA-binding protein)	1	0.261	0.22	-1.33
